Source: publication PMC12138661, “Anti-Trypanosoma cruzi Effect of Fatty Acids from Porcelia macrocarpa Is Related to Interactions of Cell Membranes at Different Microdomains as Assessed Using Langmuir Monolayers” (ACS Omega, 2025)

Columns and labels:
[1] = system: trypomastigote forms of T. cruzi (strain Y); assay: In vitro EC50 against trypomastigote forms of T. cruzi (resazurin viability); type: cell-based, Trypanosoma cruzi; conditions: selectivity index, NCTC CC50 vs trypomastigote EC50
Method: Trypomastigote forms (strain Y) of T. cruzi were obtained from Swiss mice (Mus musculus) previously infected intraperitoneally. The trypomastigote forms were used to infect LLC-MK2 cell cultures consisting of Macaca mulatta kidney epithelial cells (ATCC CCL 7) grown in RPMI-1640 medium containing 2% fetal bovine serum (FBS). The infected cell cultures were maintained in an incubator at 37 °C with 5% CO2, as previously described. , To evaluate the 50% effective concentration (EC50) against the trypomastigote forms of T. cruzi, mixture 1–10 was serially solubilized in the RPMI-1640 culture medium in 96-well plates. Subsequently, the trypomastigote forms of T. cruzi were added, at a concentration of 1 × 10^6 trypomastigotes per well. After an incubation period of 24 h at 37 °C with 5% CO2, to determine the viability of trypomastigotes, 20 μL of 10% Alamar Blue (resazurin) was added, followed by a new incubation of the plates for 20 h under the same conditions. At the end of the tests, the plates were read by absorption using a microplate spectrophotometer (Filter Max F5 Multi-Mode Microplate Reader) at 570 nm, as previously described. Benznidazole was used as a positive control, while cells not subjected to treatment were used as a negative control.

[2] = system: amastigote forms of T. cruzi; assay: In vitro EC50 against intracellular amastigote forms of T. cruzi in peritoneal macrophages (Giemsa, infection index); type: cell-based, Trypanosoma cruzi; conditions: selectivity index, NCTC CC50 vs amastigote EC50
Method: After collecting and counting the cells, they were seeded in Nunc brand 16-well plates and incubated for 18 h at 37 °C in an incubator containing 5% CO2. Nonadherent cells were then removed by washing with RPMI-1640 medium. Subsequently, the cells were infected with trypomastigotes at a ratio of 10:1 per well during an incubation period of 4 h. The mixture of compounds, previously diluted in series, was added and incubated for 48 h to determine the EC50 against amastigotes. After the incubation phase, the glass slides were fixed using MeOH for 5 min and then stained with Giemsa for 7 min. This procedure allowed for observation under a light microscope. The infection index was obtained in 200 macrophages/slide according to the formula: infected macrophages × number of amastigotes/total number of macrophages. Benznidazole was used as a standard drug. ,

O=C(Cn1ccnc1[N+](=O)[O-])NCc1ccccc1 [benznidazole]
SI TRYPO [1]: >51.2
SI TRYPO ([1]; listed as Benznidazole): > 51
SI AMA [2]: >210.5
SI AMA ([2]; listed as Benznidazole): > 210
